Measurements reported in PubChem BioAssay AID1259414 (Drosophila RNAi Screening Center, 2018).
The screen tested about 24,000 reagents; below is an unselected part of those that have a named target and a result. Of all reagents, about 1,210 (5%) are marked active. 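Inactive calls also include excluded dsRNAs with several or no targets, genes unexpressed in JW18, and well A1, regardless of score.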 Unmarked entries are inactive. Names joined by + are all predicted targets of the reagent.

Assay: 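Fly genes that alter Wolbachia amount inside host cells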 (primary screen)
Cells: Drosophila JW18 cells infected with Wolbachia
Reagents: long dsRNA against Drosophila genes, 0.25 µg dsRNA per well of a 384-well plate
Timing: 5 days
Challenge: cells persistently infected with Wolbachia before knock-down; no added drug
Measurement: 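Imaged fluorescence in situ signal for Wolbachia 23S rRNA per DAPI-counted host cell, given as a robust z-score within each plate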
Reading the numbers: Wolbachia per cell robust z: higher = more Wolbachia per host cell than the plate typical
Call rule: 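Hit when robust z is 1.5 or more, or -1.5 or less, in at least two of three replicates; excludes dsRNAs with several or no targets, genes not expressed in JW18 and well A1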

gene	DRSC id	Wolbachia per cell robust z, rep 1	Wolbachia per cell robust z, rep 2	Wolbachia per cell robust z, rep 3
osp (outspread)	DRSC01409	-4.08	0.184	0.0447
osp (outspread)	DRSC03585	0.38	0.911	-0.102
Chc (Clathrin heavy chain)	DRSC20229	0.703	2.72	-6.83
CG4991	DRSC19928	-3.71	0.228	-0.471
Dph2 (Diphthamide biosynthesis 2)	DRSC16222	0.25	2.06	-1.77
Dph2 (Diphthamide biosynthesis 2)	DRSC26401	0.352	0.392	0.0349
Hpf1 (Histone PARylation factor 1)	DRSC12202	-2.22	-1.05	-0.465
TMEM216 + CG11760	DRSC14375	-0.63	0.155	-0.112
CG15212	DRSC10212	-0.667	0.929	0.58
CG15212	DRSC41497	1.09	-0.893	-2.1
CG30389	DRSC04077	-1.73 (active)	-0.12	-5.76
CG30389	DRSC04452	-1.15	0.334	0.272
CG30389	DRSC26370	-0.176	0.974	-0.45
Muc11A (Mucin 11A)	DRSC19498	0.333	0.505	1.24
Muc11A (Mucin 11A)	DRSC29295	-0.685	0.363	0.287
CG13258	DRSC02244	-1.67	-0.4	-0.589
Tsen54 (tRNA splicing endonuclease subunit 54)	DRSC10527	-2.07	-0.964	0.362
Tsen54 (tRNA splicing endonuclease subunit 54)	DRSC27583	-0.758	-0.00484	-0.844
Tsen54 (tRNA splicing endonuclease subunit 54)	DRSC41601	-0.43	-2.39	-0.554
CG9114	DRSC20155	-0.32	-1.1	-0.389
Vha100-1 (Vacuolar H[+] ATPase 100kD subunit 1)	DRSC14148	-1.48	-0.237	0.0897
Vha100-1 (Vacuolar H[+] ATPase 100kD subunit 1)	DRSC26617	0.0902	1.97	0.176
Vha100-1 (Vacuolar H[+] ATPase 100kD subunit 1)	DRSC38989	0.855	-0.0706	1.11
Naam (Nicotinamide amidase)	DRSC16252	-4.9 (active)	-5.68	-1.08
BORCS5 (BLOC-1 related complex subunit 5)	DRSC19427	0.354	0.198	0.39
BORCS5 (BLOC-1 related complex subunit 5)	DRSC26187	-0.33	-0.387	-0.561
RunxB (Runt related B)	DRSC20395	0.684	-9.28	-1.21
RunxB (Runt related B)	DRSC20525	0.593	0.21	-1
RunxB (Runt related B)	DRSC20526	-0.251	-0.748	-1.36
RunxB (Runt related B)	DRSC23150	0.52	-5.43	-5.38
RunxB (Runt related B)	DRSC28799	-1.21	-0.121	-0.448
Gr33a (Gustatory receptor 33a)	DRSC02589	1	1.25	0.93
CG33062	DRSC22195	-0.573	-1.65	0.167
CG33062	DRSC27501	0.246	0.0734	-0.277
CG14835	DRSC10205	0.937	1.3	-3.22
Flacc (Fl(2)d-associated complex component)	DRSC20040	1.14	0.276	2.14
Flacc (Fl(2)d-associated complex component)	DRSC25501	1.96 (active)	0.757	2.37
Nt5b (5' nucleotidase B)	DRSC19976	-0.056	0.316	0.852
Nt5b (5' nucleotidase B)	DRSC19977	-0.454	-0.042	0.0676
Nt5b (5' nucleotidase B)	DRSC19978	0.774	-2.15	0.313
Nt5b (5' nucleotidase B)	DRSC22588	-0.361	-1.42	0.688
Nt5b (5' nucleotidase B)	DRSC28223	0.488	0.303	0.168
per (period)	DRSC18818	-0.151	0.26	0.951
per (period)	DRSC26579	0.144	1.34	0.315
Ythdf (YTH N6-methyladenosine RNA binding protein)	DRSC16036	1.03	0.457	-0.448
Ythdf (YTH N6-methyladenosine RNA binding protein)	DRSC16037	0.879	-2.76	-0.449

Part of the list above, reformatted.
gene,DRSC id,"Wolbachia per cell robust z, rep 1","Wolbachia per cell robust z, rep 2","Wolbachia per cell robust z, rep 3"
Gr33a (Gustatory receptor 33a),DRSC02589,1,1.25,0.93
CG33062,DRSC22195,-0.573,-1.65,0.167
CG33062,DRSC27501,0.246,0.0734,-0.277
